MIC data for one sequence are collected here from ChEMBL document CHEMBL1629571, “High prevalence of plasmid-mediated quinolone resistance determinants qnr, aac(6')-Ib-cr, and qepA among ceftiofur-resistant Enterobacteriaceae isolates from companion and food-producing animals” (2009).

Assay [1] has as its system Escherichia coli. As to conditions: J53.
The test system of assay [2] is Escherichia coli. As to conditions: J53. This is another data set of the same source.

In general, MIC refers to the smallest concentration in the dilution series that meets the test's criterion for growth inhibition. Read a high MIC as weaker potency. On to GENTAMICIN, for which the MIC in the assay on Escherichia coli [1] and in the assay on Escherichia coli [2] was 0.5 µg/mL each time.
